Pooled drug test results. Numbers come from NIAID ChemDB, via PubChem.

All rows: tests in culture

ECn: concentration that inhibits the pathogen or its effect by n%. Neighbouring rows are from separate reports. An empty or dashed field is not shown. A number after MIC or MFC names an inhibition level or a share of isolates. Inhibition is in % at the dose shown (toxicity tests: loss of growth or viability). a–b is a range or a potency band.

| smiles | cells | method | tested at | measure | strain or isolate | species | result |
|---|---|---|---|---|---|---|---|
| O=C(c1ccccc1)c1oc2cc(O)cc(O)c2c1O |  |  | 10 µM | inhibition |  | Cryptosporidium parvum | 10% |
| CCOC(=O)c1c(C)nc(OCCCNc2ccnc3cc(Cl)ccc23)nc1-c1ccccc1 |  |  |  | MIC99 | 547/OTTI-97-PI-10 | Cryptococcus gattii | 16 µg/mL |
| O=C1COc2cc(O)ccc21 |  |  |  | EC50 |  | Cryptosporidium parvum | >50 µM |
| Oc1ccc(O)c(C=Nc2ccccc2O)c1 |  |  |  | MIC99 | ATCC 32608 | Cryptococcus gattii | 8 µg/mL |
| C[C@@H](c1ncncc1F)[C@](O)(Cn1cncn1)c1ccc(F)cc1F |  | broth dilution |  | MIC90 | VG IIb | Cryptococcus gattii | 0.125 µg/mL |
| O=C1c2cccc(Cl)c2C(=O)c2cn[nH]c21 |  |  | 10 µM | inhibition |  | Cryptosporidium parvum | 17% |
| NC[C@@H]1O[C@H](O[C@H]2[C@@H](O)[C@H](O[C@@H]3[C@@H](O)[C@H](N)C[C@H](N)[C@H]3O[C@H]3O[C@H](CO)[C@@H](O)[C@H](O)[C@H]3N)O[C@@H]2CO)[C@H](N)[C@@H](O)[C@@H]1O | MDCK | luminescence | 10 µg/mL | inhibition | IOWA | Cryptosporidium parvum | 2.8% |
| Oc1ccccc1N=Cc1ccc2c(c1)OCO2 |  | broth dilution |  | MIC | 27JF | Cryptococcus neoformans | 11.3 µg/mL |
| O=C1/C(=C/c2ccc(O)c(O)c2)Oc2cc(O)ccc21 |  |  |  | EC50 |  | Cryptosporidium parvum | 10–25 µM |
| Oc1ccccc1N=Cc1ccc(F)cc1 |  |  |  | MIC99 | L-28/02 | Cryptococcus gattii | 16 µg/mL |
| O=C1c2cccc(O)c2C(=O)c2cn[nH]c21 |  |  |  | EC50 |  | Cryptosporidium parvum | >100 µM |
| Cc1nc(NCCCCNc2ccnc3cc(Cl)ccc23)nc(-c2ccccc2[N+](=O)[O-])c1C(=O)OC(C)C |  |  |  | MIC99 | L 27/01 | Cryptococcus gattii | 32 µg/mL |
| CC[C@H]1OC(=O)[C@H](C)[C@@H](O[C@H]2C[C@@](C)(OC)[C@@H](O)[C@H](C)O2)[C@H](C)[C@@H](O[C@@H]2O[C@H](C)C[C@H](N(C)C)[C@H]2O)[C@](C)(O)C[C@@H](C)CN(C)[C@H](C)[C@@H](O)[C@]1(C)O | A549 |  |  | EC50 |  | Cryptosporidium parvum | >8 µg/mL |
| Cn1ncc2c1C(=O)c1cccc(O)c1C2=O |  |  | 50 µM | inhibition |  | Cryptosporidium parvum | 100% |
| COc1cc(/C=C/C=C\c2ccccc2OC)oc(=O)c1 |  |  | 25 µM | inhibition |  | Cryptosporidium parvum | 11% |
| Cc1nc(NCCCCNc2ccnc3cc(Cl)ccc23)nc(-c2ccccc2)c1C(=O)OC(C)C |  |  |  | MIC99 | ATCC 32608 | Cryptococcus gattii | 16 µg/mL |
| CCn1nc(Cc2ccccc2)c2c1C(=O)c1c(OC(C)=O)c(C)c(C)c(OC(C)=O)c1C2=O |  |  | 100 µM | inhibition |  | Cryptosporidium parvum | <10% |
| NCCCC[C@H](NC(=O)[C@@H](N)CCCCN)C(=O)N[C@@H](CCC(N)=O)C(=O)N[C@@H](CCCN=C(N)N)C(=O)O |  |  | 50 µM | inhibition | ATCC 32264 | Cryptococcus neoformans | 92% |
| Cc1[nH]nc2c1C(=O)c1c(O)ccc(O)c1C2=O |  |  |  | EC50 |  | Cryptosporidium parvum | 25–50 µM |
| Oc1ccccc1C=Nc1ccccc1O |  |  |  | MIC99 | L24/01 | Cryptococcus gattii | 5.7 µg/mL |
| CCC(C)CC(C)CCCCCCCCC(=O)N[C@H]1C[C@@H](O)[C@H](NCCN)NC(=O)[C@@H]2[C@@H](O)CCN2C(=O)[C@H]([C@H](O)CCN)NC(=O)[C@H]([C@H](O)[C@@H](O)c2ccc(O)cc2)NC(=O)[C@@H]2C[C@@H](O)CN2C(=O)[C@H]([C@@H](C)O)NC1=O |  | broth dilution |  | MIC | CBS 11247 | Cryptococcus gattii | 16 µg/mL |
| CCn1nc(C)c2c1C(=O)c1ccccc1C2=O |  |  | 25 µM | inhibition |  | Cryptosporidium parvum | <10% |
| CC(=O)OC[C@H]1O[C@@H](O[C@@H]2[C@@H](N=[N+]=[N-])[C@H](O)[C@H](O)[C@H]3OC(C)(C)O[C@H]32)[C@H](OC(C)=O)[C@@H](OC(C)=O)[C@H]1OC(C)=O |  | broth dilution / turbidity | 250 µg/mL | inhibition | ATCC 32264 | Cryptococcus neoformans | 45.87% |

The last 3 rows once more:

smiles,cells,method,tested at,measure,strain or isolate,species,result
CCC(C)CC(C)CCCCCCCCC(=O)N[C@H]1C[C@@H](O)[C@H](NCCN)NC(=O)[C@@H]2[C@@H](O)CCN2C(=O)[C@H]([C@H](O)CCN)NC(=O)[C@H]([C@H](O)[C@@H](O)c2ccc(O)cc2)NC(=O)[C@@H]2C[C@@H](O)CN2C(=O)[C@H]([C@@H](C)O)NC1=O,,broth dilution,,MIC,CBS 11247,Cryptococcus gattii,16 µg/mL
CCn1nc(C)c2c1C(=O)c1ccccc1C2=O,,,25 µM,inhibition,,Cryptosporidium parvum,<10%
CC(=O)OC[C@H]1O[C@@H](O[C@@H]2[C@@H](N=[N+]=[N-])[C@H](O)[C@H](O)[C@H]3OC(C)(C)O[C@H]32)[C@H](OC(C)=O)[C@@H](OC(C)=O)[C@H]1OC(C)=O,,broth dilution / turbidity,250 µg/mL,inhibition,ATCC 32264,Cryptococcus neoformans,45.87%